Measured values from several laboratories, pooled; numbers as filed in NIAID ChemDB.

Common to all: tests in culture; species: HIV-1

ECn: concentration that inhibits the pathogen or its effect by n%. Neighbouring rows are from separate reports. An empty or dashed field is not shown.

SMILES | changes | strain or isolate | method | measure | setting | cell line | result
O=C(O)P(=O)(O)O |  | 8564 CLADE D CLADE D | p24 | EC50 |  | PBMC | 14.8 µM
COc1cc(OC)nc(N2C(=O)CSC2c2c(F)cccc2Cl)n1 |  | VB51 | p24 / ELISA | EC50 |  | PBMC | 0.002 µg/mL
O=C(CN1CCN(c2ccc([N+](=O)[O-])cc2)CC1)OC[C@@H]1CC[C@H](n2cnc3c(=O)[nH]cnc32)O1 |  | IIIB | cytopathic effect / MTT | EC50 |  | MT-4 | 4.78 µM
O=c1[nH]cnc2c1ncn2[C@H]1CC[C@@H](CO)O1 |  | RF | p24 | EC50 |  | H9 | 9.1 µM
Cc1ccnc2c1NC(=O)c1cccnc1N2C1CC1 | Y181C | IIIB | MTT | EC50 |  | MT-4 | >15.9 µM
CN(C)c1cccc(CN2C(=O)N(Cc3ccc4[nH]ncc4c3)[C@H](Cc3ccccc3)[C@H](O)[C@@H](O)[C@H]2Cc2ccccc2)c1 |  | RF |  | EC50 |  | MT-2 | <0.039 µM
Cc1cc(/C=C/C#N)cc(C)c1Oc1ccnc(S(=O)(=O)CC(=O)Nc2ccc(F)cc2)n1 |  |  | MTT | EC50 |  | MT-4 | 0.005 µM
CC(C)=CCN1Cc2cc(Cl)cc3[nH]c(=S)n(c23)C[C@@H]1C | RT-L100I | IIIB-TIBO(0.5)(RT-L100I) | syncytia | EC50 |  | CEM | 0.13 µg/mL
O=C1N(Cc2cccc(-c3ncn[nH]3)c2)[C@H](Cc2ccccc2)[C@H](O)[C@@H](O)[C@@H](Cc2ccccc2)N1Cc1ccc2[nH]ncc2c1 |  | RF WT |  | EC50 |  | MT-2 | <0.024 µM
O=c1[nH]cnc2c1ncn2[C@H]1CC[C@@H](CO)O1 | RT-L100I | IIIB-TIBO(0.5)(RT-L100I) | syncytia | EC50 |  | CEM | 8 µM
OCCc1ccc(O)c(O[C@@H]2O[C@H](CO)[C@@H](O)[C@H](O)[C@H]2O)c1 |  |  |  | EC50 |  |  | 3.25 µg/mL
COc1cc2c(cc1OCc1ccccc1)C(Cc1ccc(Cl)cc1)N(Cc1ccccc1)CC2 |  | IIIB | p24 | EC50 |  | H9 | 3.2 µg/mL
CCN(c1ncccc1NC(C)(C)C)C1CCN(C(=O)c2cc3cc(NS(C)(=O)=O)ccc3[nH]2)CC1 |  | IIIB | p24 | EC90 |  | MT-4 | 0.004 µM
C1CNCCNCCCN(CCCN2CCCNCCNCCCNCC2)CCNC1 |  | IIIB | antigen | EC90 |  | CEM | 5.1 µM
OB(O)c1ccccc1 |  | IIIB | syncytia | EC50 |  | CEM | >250 µM
COc1ccc(C[C@@H]2c3cc(Oc4cc(C[C@@H]5c6cc(O)c(OC)cc6CCN5C)ccc4O)c(OC)cc3CCN2C)cc1 |  | IIIB | p24 | EC50 |  | H9 | <0.8 µg/mL
COc1c(O)cc([C@H]2Oc3cc(O)cc(O)c3[C@@H](c3c(O)cc(O)c4c3O[C@H](c3cc(O)c(OC)c(O)c3)[C@H](O)C4)[C@@H]2O)cc1O |  | IIIB | MTT | EC50 |  | MT-4 | >7.58 µg/mL
O=C(Nc1ncc[nH]1)c1cccc(CN2C(=O)N(Cc3cccc(C(=O)Nc4ncc[nH]4)c3)[C@H](Cc3ccccc3)[C@H](O)[C@@H](O)[C@H]2Cc2ccccc2)c1 |  | RF WT |  | EC50 |  | MT-2 | <0.06 µM
Cc1cc(C)cc(C(=O)c2cccnc2Nc2ccc(CC#N)cc2)c1 |  | IIIB | MTT | EC50 |  | MT-4 | >97.48 µM
CC(=O)c1cccc(CN2C(=O)N(Cc3ccc4[nH]ncc4c3)[C@H](Cc3ccccc3)[C@H](O)[C@@H](O)[C@H]2Cc2ccccc2)c1 |  | RF |  | EC50 |  | MT-2 | <0.015 µM
CC(C)[C@H](NC(=O)[C@H](Cc1cccc2ccccc12)CS(=O)(=O)C(C)(C)C)C(=O)N[C@@H](Cc1ccccc1)[C@@H](O)[C@H](O)[C@H](Cc1ccccc1)NC(=O)[C@@H](NC(=O)[C@H](Cc1cccc2ccccc12)CS(=O)(=O)C(C)(C)C)C(C)C |  | MN | syncytia | EC50 |  | H9 | 0.004 µM
OB(O)c1ccccc1OCc1ccc(I)cc1 |  | IIIB | syncytia | EC50 |  | CEM | >50 µM
Cc1cn([C@H]2C[C@H](N=[N+]=[N-])[C@@H](CO)O2)c(=O)[nH]c1=O |  | IIIB | syncytia | EC50 |  | CEM | 0.003 µM
Cc1cc(-c2ccc(C#N)cc2)cc(C)c1Oc1ccnc(S(=O)(=O)CC(=O)Nc2ccc(C#N)cc2)n1 |  | RES056 | MTT | EC50 |  | MT-4 | 0.226 µM
COc1ncccc1C(=O)c1cccc(C#N)c1 |  | RES056 | MTT | EC50 |  | MT-4 | >255 µM
O=C(CN1CCN(c2cc3c(cc2F)c(=O)c(C(=O)O)cn3C2CC2)CC1)OC[C@@H]1CC[C@H](n2cnc3c(=O)[nH]cnc32)O1 |  | IIIB | cytopathic effect / MTT | EC50 |  | MT-4 | 3.12 µM
Cc1cn([C@@H]2O[C@H](CO[Si](C)(C)C(C)(C)C)C3(OS(=O)(=O)C(I)=C3N)[C@H]2O[Si](C)(C)C(C)(C)C)c(=O)n(C)c1=O |  | IIIB | syncytia | EC50 |  | CEM | 0.05 µM
Cc1cc(C#N)cc(C)c1Oc1nc(Nc2ccc(C#N)cc2)nc(N)c1Br | F227L V106A | IIIB | MTT | EC50 |  | MT-4 | 0.02 µM
CCNc1cccnc1N1CCN(C(=O)c2cc3cc(OC)ccc3[nH]2)CC1 |  | D34 | syncytia | EC50 |  | PBL | 0.03 µM
CC(C)OC(=O)OCOP(=O)(CO[C@H](C)Cn1cnc2c(N)ncnc21)OCOC(=O)OC(C)C |  | IIIB | XTT / p24 | EC50 | 7 d | MT-2 | 0.007 µM
CNc1cccc(CN2C(=O)N(Cc3ccc4[nH]ncc4c3)[C@H](Cc3ccccc3)[C@H](O)[C@@H](O)[C@H]2Cc2ccccc2)c1 |  | RF |  | EC50 |  | MT-2 | <0.008 µM
OB(O)c1ccc(F)cc1 |  | IIIB | syncytia | EC50 |  | CEM | >250 µM
Cc1ccnc2c1NC(=O)c1cccnc1N2C1CC1 | RT-Y181C |  | syncytia | EC50 |  | CEM | 25.5 µM
C1CNCCNCCCN(CCCN2CCCNCCNCCCNCC2)CCNC1 |  | NL4-3 | p24 / ELISA | EC50 |  | MT-4 | 0.3 µg/mL
COc1cc2c(cc1OCc1ccccc1)C(Cc1ccc(Br)cc1)N(Cc1ccccc1)CC2 |  | IIIB | p24 | EC50 |  | H9 | 5.3 µg/mL
O=C1N(Cc2cccc(Cn3ccnn3)c2)[C@H](Cc2ccccc2)[C@H](O)[C@@H](O)[C@@H](Cc2ccccc2)N1Cc1ccc2[nH]ncc2c1 |  | RF |  | EC50 |  | MT-2 | <0.03 µM
OB(O)c1ccccc1COc1c(F)cccc1F |  | IIIB | syncytia | EC50 |  | CEM | >50 µM
Cc1ccnc2c1NC(=O)c1cccnc1N2C1CC1 |  | N119 | p24 / ELISA | EC50 |  | PBMC | 0.15 µg/mL
CCn1cc(C(=O)O)c(=O)c2cc(F)c(N3CCN(CC(=O)OC[C@@H]4CC[C@H](n5cnc6c(=O)[nH]cnc65)O4)CC3)cc21 |  | IIIB | cytopathic effect / MTT | EC50 |  | MT-4 | 1.16 µM
CCN1C(=O)N(Cc2cccc(Cl)c2)S(=O)(=O)c2cscc21 | RT-D67N K70R T215F K219Q | ADP/141 | syncytia | EC50 |  | MT-4 | 0.6 µM
COc1c(O)cc2c3c1-c1cc(O)ccc1C[C@H]3N(C)CC2 |  | IIIB | p24 | EC50 |  | H9 | <0.8 µg/mL
O=C(CC[C@H](NC(=O)OCc1ccccc1)C(=O)O)Nc1ccc(B(O)O)cc1 |  | IIIB | syncytia | EC50 |  | CEM | >50 µM
Cc1cc(C)cc(C(=O)c2cccnc2Nc2ccc(C(F)(F)F)cc2)c1 |  | IIIB | MTT | EC50 |  | MT-4 | >106 µM
CCNc1cccnc1N1CCN(C(=O)c2cc3cc(OC)ccc3[nH]2)CC1 | RT-Y181C | IIIB-TSAO-m3T(10)(RT-Y181C) | syncytia | EC50 |  | CEM | 0.08 µg/mL
Cc1cc(C)cc(C(=O)c2cccnc2Nc2cccnc2)c1 |  | RES056 | MTT | EC50 |  | MT-4 | >41.63 µM
CCN1C(=O)N(Cc2ccccc2)S(=O)(=O)c2cscc21 |  | HE | syncytia | EC50 |  | MT-4 | 20.5 µM
Nc1ccn([C@@H]2CS[C@H](CO)O2)c(=O)n1 |  | IIIB | MTT | EC50 |  | MT-4 | 2.24 µM
CC1=C(C(=O)Nc2ccc(Cl)c(C(=O)OC(C)C)c2)SCCO1 |  | IIIB | cytopathic effect / XTT | EC50 |  | CEM + CEM-SS | 0.2 µM
O=C(CO)CCC(=O)OCCc1ccc2c(c1)OCO2 |  |  |  | EC50 |  |  | 6.71 µg/mL
Cc1cn([C@@H]2O[C@H](CO[Si](C)(C)C(C)(C)C)[C@@]3(OS(=O)(=O)C=C3N)[C@H]2O[Si](C)(C)C(C)(C)C)c(=O)[nH]c1=O |  | IIIB | syncytia | EC50 |  | CEM | 0.05 µM
Cc1cc(C#N)cc(C)c1Oc1nc(Nc2ccc(C#N)cc2)nc(N)c1Br |  | IIIB | MTT | EC50 |  | MT-4 | 0.0018 µM
COc1cc(CCOC(=O)CCC(=O)CO)cc(O)c1OC |  |  |  | EC50 |  |  | 2.95 µg/mL
C1CNCCNCCCN[C@H]([C@@H]2CNCCCNCCNCCCN2)CNC1 |  | IIIB | p24 / ELISA | EC50 |  | PBL | 1.45 µM
Cc1ccc(NC(=O)c2cccc(CN3C(=O)N(Cc4ccc5[nH]ncc5c4)[C@H](Cc4ccccc4)[C@H](O)[C@@H](O)[C@H]3Cc3ccccc3)c2)nc1 |  | RF |  | EC50 |  | MT-2 | <0.004 µM
Cc1cc(-c2ccc(C#N)cc2)cc(C)c1Oc1ccnc(S(=O)(=O)CC(=O)NCc2ccc(Br)cc2)n1 |  | IIIB | MTT | EC50 |  | MT-4 | >3.57 µM
Cc1cn([C@H]2C[C@H](N=[N+]=[N-])[C@@H](CO)O2)c(=O)[nH]c1=O |  | G | cytopathic effect / XTT | EC50 |  | CEM + CEM-SS | 0.008 µM
N#CCN1C(=O)N(Cc2ccccc2)S(=O)(=O)c2cscc21 |  | NDK | syncytia | EC50 |  | MT-4 | 6 µM
O=C(Cc1ccccn1)c1cccc(CN2C(=O)N(Cc3ccc4[nH]ncc4c3)[C@H](Cc3ccccc3)[C@H](O)[C@@H](O)[C@H]2Cc2ccccc2)c1 |  | RF WT |  | EC50 |  | MT-2 | <0.015 µM
Cc1cn([C@H]2C=C[C@@H](CO)O2)c(=O)[nH]c1=O |  | RF | p24 | EC50 |  | H9 | 0.8 µM
COc1cc(/C=C/C(=O)O[C@H]2[C@H](O)[C@@H](OC3OCC(O)(CO)C3O)[C@H](OCCc3ccc(O)cc3)O[C@@H]2CO)ccc1O |  |  |  | EC50 |  |  | 3.79 µg/mL

Again, the opening 6 rows:

O=C(O)P(=O)(O)O ; strain or isolate: 8564 CLADE D CLADE D ; method: p24 ; measure: EC50 ; cell line: PBMC ; result: 14.8 µM
COc1cc(OC)nc(N2C(=O)CSC2c2c(F)cccc2Cl)n1 ; strain or isolate: VB51 ; method: p24 / ELISA ; measure: EC50 ; cell line: PBMC ; result: 0.002 µg/mL
O=C(CN1CCN(c2ccc([N+](=O)[O-])cc2)CC1)OC[C@@H]1CC[C@H](n2cnc3c(=O)[nH]cnc32)O1 ; strain or isolate: IIIB ; method: cytopathic effect / MTT ; measure: EC50 ; cell line: MT-4 ; result: 4.78 µM
O=c1[nH]cnc2c1ncn2[C@H]1CC[C@@H](CO)O1 ; strain or isolate: RF ; method: p24 ; measure: EC50 ; cell line: H9 ; result: 9.1 µM
Cc1ccnc2c1NC(=O)c1cccnc1N2C1CC1 ; changes: Y181C ; strain or isolate: IIIB ; method: MTT ; measure: EC50 ; cell line: MT-4 ; result: >15.9 µM
CN(C)c1cccc(CN2C(=O)N(Cc3ccc4[nH]ncc4c3)[C@H](Cc3ccccc3)[C@H](O)[C@@H](O)[C@H]2Cc2ccccc2)c1 ; strain or isolate: RF ; measure: EC50 ; cell line: MT-2 ; result: <0.039 µM